Measured values from several laboratories, pooled; numbers as filed in NIAID ChemDB.

All rows: growth or infection tests; agent: Plasmodium falciparum

Inhibition is in % at the dose shown (toxicity tests: loss of growth or viability).

compound	setting	dose	method	changes	read-out	strain or isolate	cell line	result
Cn1nc(C(F)(F)F)c(-c2ccc(Br)cc2)c1NC(=O)Nc1ccc(F)cc1F			SYBR Green / fluorescence	Multidrug-resistant	EC50	Dd2 (EF1)		0.1841 µM
CCN(CC)CCCC(C)Nc1ccnc2cc(Cl)ccc12	24 h	0.031 µg/mL			inhibition	Dd2		10%
CC[C@H]1OC(=O)[C@H](C)[C@@H](OC2C[C@@](C)(OC)[C@@H](O)[C@H](C)O2)[C@H](C)[C@@H](OC2O[C@H](C)C[C@H](N(C)C)[C@H]2O)[C@](C)(O)C[C@@H](C)CN(C)[C@H](C)[C@@H](O)[C@]1(C)O	48 h		fluorescence		EC50	3D7	RBC	18.2 µM
CCN(CC)CCCC(C)Nc1ccnc2cc(Cl)ccc12			SYBR Green / fluorescence		EC50	Dd2 (CM1)		0.0106 µM
N=C(N)c1ccc(NCCCCNc2ccc(C(=N)N)cc2)cc1			hypoxanthine uptake		EC50	W2		0.135 µM
NCCC1=c2c(O)c3c(c(O)c2N=C1)=NC=CS3(=O)=O					MIC	3D7		0.051 µM
N=C(N)c1ccc(OCCCCOc2ccc(C(=N)N)cc2[N+](=O)[O-])c([N+](=O)[O-])c1			hypoxanthine uptake		EC50	D6		0.139 µM
CC(C)(C)OC(=O)N/N=C(/OCCc1ccccc1)C(C)(O)c1ccc(Cl)c(Cl)c1		5 µM	hypoxanthine uptake / radiometric		inhibition	3D7		0%
N=C(N)c1ccc(OCCCCCOc2ccc(C(=N)N)cc2Br)c(Br)c1			hypoxanthine uptake		EC50	D6		0.181 µM
CCO/C(=N/NC(=O)OC)C(C)(O)c1ccc(C)c(C)c1		5 µM	hypoxanthine uptake / radiometric		inhibition	3D7		19%
COc1cc(C(=N)N)ccc1OCCCOc1ccc(C(=N)N)cc1OC			hypoxanthine uptake		EC50	D6		0.197 µM
CCO/C(=N/NC(=O)OC(C)(C)C)C(O)c1ccc(Cl)c(Cl)c1		5 µM	hypoxanthine uptake / radiometric		inhibition	3D7		12%
CC[C@H]1OC(=O)[C@H](C)[C@@H](OC2C[C@@](C)(OC)[C@@H](O)[C@H](C)O2)[C@H](C)[C@@H](OC2O[C@H](C)C[C@H](N(C)C)[C@H]2O)[C@](C)(OC2C[C@@H](N(C)C)[C@@H](O)[C@H](C)O2)C[C@@H](C)CN(C)[C@H](C)[C@@H](O)[C@]1(C)O	48 h		fluorescence		EC50	3D7	RBC	1.6 µM
CCO/C(=N/NC(=O)NCc1ccccc1)C(C)(O)c1ccc2ccccc2c1		5 µM	hypoxanthine uptake / radiometric		inhibition	3D7		5%
C[C@H]1CCc2c([nH]c3ccccc23)[C@@]2(N1)C(=O)Nc1ccc(Cl)cc12			SYBR Green / fluorescence	KAE678-resistant (G223R)	EC50	KAE678R-1		0.247 µM

Repeating the final 2 entries:

compound,setting,dose,method,changes,read-out,strain or isolate,cell line,result
CCO/C(=N/NC(=O)NCc1ccccc1)C(C)(O)c1ccc2ccccc2c1,,5 µM,hypoxanthine uptake / radiometric,,inhibition,3D7,,5%
C[C@H]1CCc2c([nH]c3ccccc23)[C@@]2(N1)C(=O)Nc1ccc(Cl)cc12,,,SYBR Green / fluorescence,KAE678-resistant (G223R),EC50,KAE678R-1,,0.247 µM

Rows are shuffled and stem from different studies. Blank or dashed fields: not listed here. ECn is the concentration giving n% inhibition of infection, replication or growth.